In paper PMC7385629 (Scientific Reports, 2020):

Test system: N[C@@H](Cc1ccc(O)cc1)C(=O)O
Experiment: purified protein
Conditions: co-substrate sodium pyruvate 100 mM, 30 µM PLP, pH 8, 37 °C, tyrosine 0-7 mM, apparent

CTAT (Leishmania donovani)
Km: 4.581 ± 0.627 mM
